Measured values from several laboratories, pooled; numbers as filed in NIAID ChemDB.

Common to all: target-level tests; organism: HIV-1; protein: Protease; measure: IC50

Rows are shuffled and stem from different studies.

smiles,method,result
CCC(Cc1cccc(NS(=O)(=O)c2ccc([N+](=O)[O-])cn2)c1)c1cc(O)c(C(c2ccccc2)C2CC2)c(=O)o1,fluorescence,0.073 µM
CC(C)(C)OC(=O)N[C@@H](Cc1ccccc1)[C@@H](O)C[N+](C)(C)/N=C(\[O-])c1ccccc1,HPLC,14 µM
CC(C)C[C@H](NC(=O)C[C@@H]1CC[C@H](NC(=O)[C@H](Cc2ccccc2)NC(=O)[C@@H](NC(=O)OCc2ccccc2)C(C)C)[C@H]1O)C(=O)NC(C)(C)C,absorbance,>10 µM
CC(C)(C)NC(=O)[C@H]1N(C(=O)[C@@H](O)[C@H](Cc2ccccc2)NC(=O)[C@H](CC(N)=O)NC(=O)COc2cccc(Cl)c2)CSC1(C)C,-,<0.05 µM
COc1ccnc2[nH]cc(C(=O)C(=O)N3CCN(C(=O)c4ccccc4)C[C@H]3C)c12,-,>20 µM
CC(=O)N[C@@H](Cc1c[nH]c2ccccc12)C(=O)N[C@H](C(=O)N[C@@H](Cc1ccccc1)[C@H](O)[C@@H](O)[C@H](Cc1ccccc1)NC(=O)[C@@H](NC(=O)[C@H](Cc1c[nH]c2ccccc12)NC(C)=O)C(C)C)C(C)C,-,0.005 µM
CC[C@H](C)[C@H](NC(=O)C[C@H](O)[C@H](Cc1ccccc1)NC(=O)OC(C)(C)C)C(=O)N[C@@H](Cc1ccccc1)C(=O)OC,-,<10 µM
COc1cccc(C[C@H](C[C@H](O)[C@H](Cc2ccccc2)NC(=O)OC(C)(C)C)C(=O)N[C@H](C(=O)N[C@@H](Cc2ccccc2)C(=O)N2CCOCC2)C(C)C)c1,fluorescence,0.008 µM
NC(=O)C[C@H](NC(=O)OCc1ccccc1)C(=O)N[C@@H](Cc1ccccc1)[C@H](O)C(=O)N1CCC[C@H]1C(=O)NC1CCCCC1,-,<5 µM
CC(=O)O[C@H]1CC[C@]2(C)[C@H]3CC=C4[C@@H]5[C@@H](C)[C@H](C)CC[C@]5(C(=O)O)CC[C@@]4(C)[C@]3(C)CC[C@H]2C1(C)C,HPLC,13 µM
CCC(Cc1cccc(NS(=O)(=O)c2ccc(NC(C)=O)cc2)c1)c1cc(O)c(C(c2ccccc2)C2CC2)c(=O)o1,fluorescence,3.24 µM
COc1ccc(C[C@H](C[C@H](O)[C@H](Cc2ccccc2)NC(=O)OC(C)(C)C)C(=O)N[C@H](C(=O)N[C@@H](Cc2ccccc2)C(=O)N2CCOCC2)C(C)C)c(OC)c1,fluorescence,0.018 µM
CC(C)[C@@H](C(=O)N[C@@H](Cc1ccccc1)C[C@H](O)[C@H](Cc1ccccc1)NC(=O)COc1c(Cl)cccc1Cl)N1CCCNC1=O,-,<0.0005 µM
CCC(Cc1cccc(NS(=O)(=O)c2ccccn2)c1)c1cc(O)c(C(c2ccccc2)C2CC2)c(=O)o1,fluorescence,0.66 µM
CC[C@H](C)[C@H](NC(=O)CN(N)C(=O)[C@H](Cc1ccccc1)NC(=O)OC(C)(C)C)C(=O)N[C@@H](Cc1ccccc1)C(=O)OC,-,>10 µM
CC(C)=CC[C@@H]1C(C)=CC[C@@H](c2ccccc2)[C@@H]1C(=O)c1c(O)cc(O)cc1O,HPLC,5.6 µM
COC(=O)[C@]12CCC(C)(C)C[C@H]1C1=CC[C@@H]3[C@@]4(C)CC[C@H](O)C(C)(C)[C@@H]4CC[C@@]3(C)[C@]1(C)CC2,HPLC,20 µM
O=C(COc1ccccc1)N[C@@H](Cc1ccccc1)[C@H](O)[C@@H](O)[C@H](Cc1ccccc1)NC(=O)COc1ccccc1,-,1 µM
C[N+](Cc1ccccc1)(C[C@H](O)[C@H](Cc1ccccc1)NC(=O)OCc1ccccc1)/N=C(\[O-])c1ccccc1,HPLC,0.5 µM
C[C@@H]1CC[C@]2(C(=O)O)CC[C@]3(C)C(=CCC4[C@@]5(C)CC[C@H](OC(=O)CCCC(=O)O)C(C)(C)C5CC[C@]43C)C2[C@H]1C,HPLC,4 µM
COC(=O)[C@H](CC(C)C)NC(=O)C[C@H]1CC[C@H](O)[C@H]1NC(=O)[C@H](Cc1ccccc1)NC(=O)OC(C)(C)C,absorbance,20 µM
CC(C)(C)OC(=O)N[C@@H](Cc1ccccc1)[C@@H](O)C[N+](C)(Cc1ccccc1)/N=C(\[O-])c1cccc(N)c1,HPLC,2.4 µM
C[C@H]1[C@H](C)CC[C@]2(C)CC[C@]3(C)C(=CC[C@@H]4[C@@]5(C)CC[C@H](O)C(C)(C)[C@@H]5CC[C@]43C)[C@H]12,HPLC,80 µM
COC(=O)[C@@H](NC(=O)C[C@@H]1CC[C@@H](O)[C@@H]1NC(=O)[C@H](Cc1ccccc1)NC(=O)OC(C)(C)C)C(C)C,absorbance,>10 µM
CCOC(=O)[C@]12CCC(C)(C)CC1C1=CCC3[C@@]4(C)CC[C@H](OC(=O)CCC(=O)O)[C@@](C)(COC(=O)CCC(=O)O)C4CC[C@@]3(C)[C@]1(C)CC2,substrate cleavage / fluorescence,25.7 µM
O=C(CCc1ccccc1)c1c(O)cc(O)cc1O,HPLC,>100 µM
CC(C)(C)OC(=O)N[C@@H](CC1CCCCC1)[C@@H](O)CC(=O)N[C@@H](CC(C)(C)C(=O)O)C(=O)NCCCc1ccccc1,HPLC,0.0094 µM
CC[C@H](C)[C@H](NC(=O)[C@H](Cc1ccccc1)NCC(O)[C@H](Cc1ccccc1)NC(=O)OCc1ccccc1)C(=O)N[C@@H](Cc1ccccc1)C(=O)OC,-,<10 µM
CC(C)(C)NC(=O)[C@H]1N(C(=O)[C@@H](O)[C@H](Cc2ccccc2)NC(=O)[C@H](CC(N)=O)NC(=O)OCc2ccccc2)CSC1(C)C,-,<0.05 µM
Cc1ncnc(C)c1OCC(=O)N[C@@H](Cc1ccccc1)[C@@H](O)C[C@H](Cc1ccccc1)NC(=O)[C@H](C(C)C)N1CCCNC1=O,-,<0.0005 µM
C[N+](Cc1ccccc1)(C[C@H](O)[C@H](Cc1ccccc1)NC(=O)N1CCOCC1)/N=C(\[O-])c1ccccc1,HPLC,6 µM
CC(C)[C@H](NC(=O)[C@H](Cc1ccc2c(c1)OCO2)C[C@H](O)[C@H](Cc1ccccc1)NC(=O)OC(C)(C)C)C(=O)N[C@@H](Cc1ccccc1)C(=O)N1CCOCC1,fluorescence,0.005 µM
CCC(C)[C@H](NC(=O)[C@H](Cc1c[nH]c2ccccc12)NC(C)=O)[C@H](O)[C@@H](O)[C@H](CC1CCCCC1)NC(=O)[C@H](Cc1c[nH]c2ccccc12)NC(C)=O,-,12 µM
Cc1cc(C)c(OCC(=O)N[C@@H](Cc2ccccc2)[C@@H](O)C[C@H](Cc2ccccc2)NC(=O)[C@H](C(C)C)N2CCCNC2=O)c(C)c1,-,<0.0005 µM
CCOC(=O)[C@]12CCC(C)(C)CC1C1=CCC3[C@@]4(C)CC[C@H](OC(=O)CC(C)(C)C(=O)O)[C@@](C)(COC(=O)CC(C)(C)C(=O)O)C4CC[C@@]3(C)[C@]1(C)CC2,substrate cleavage / fluorescence,17.2 µM
Cc1cc(C)cc(OCC(=O)N[C@@H](Cc2ccccc2)[C@@H](O)C[C@H](Cc2ccccc2)NC(=O)[C@H](C(C)C)N2CCCNC2=O)c1,-,>0.0005 µM
CCC(Cc1ccccc1)c1cc(O)c(C(c2ccccc2)C2CC2)c(=O)o1,fluorescence,0.35 µM
C=CCOC1C[C@@H](C(=O)NC(C)(C)C)N(C(=O)[C@@H](O)[C@H](Cc2ccccc2)NC(=O)[C@H](CS(C)(=O)=O)NC(=O)COc2cccc3ccccc23)C1,-,>0.05 µM
COC(=O)CC[C@H](NC(=O)CNCC(O)[C@H](CC1CCCCC1)NC(=O)OC(C)(C)C)C(=O)NCCCc1ccccc1,HPLC,0.6 µM
COC(=O)[C@H](CC(C)C)NC(=O)C[C@@H]1CC[C@@H](O)[C@@H]1NC(=O)[C@H](Cc1ccccc1)NC(=O)OC(C)(C)C,absorbance,20 µM
CC(C)(C)OC(=O)N[C@H]1CCCCNC(=O)CC(=O)NCCCC[C@@H](C(N)=O)NC(=O)[C@H](Cc2ccccc2)NC(=O)CC(Cc2ccccc2)NC1=O,-,>10 µM
COc1cc(O)c(C(=O)[C@@H]2[C@H](CC=C(C)C)C(C)=CC[C@H]2c2ccccc2)c(O)c1,HPLC,18.7 µM
CC(C)Oc1cccc(OCC(=O)N[C@@H](CC(N)=O)C(=O)N[C@@H](Cc2ccccc2)[C@H](O)C(=O)N2CSC(C)(C)[C@H]2C(=O)NC(C)(C)C)c1,-,<0.05 µM
CC1(C)CC[C@]2(C(=O)O)CC[C@]3(C)C(=CCC4[C@@]5(C)CC[C@H](OC(=O)CCC(=O)O)[C@@](C)(COC(=O)CCC(=O)O)C5CC[C@]43C)C2C1,substrate cleavage / fluorescence,19.3 µM
COCCNC(=O)[C@@H](NC(=O)[C@H](Cc1ccc(OC)cc1)C[C@H](O)[C@H](Cc1ccccc1)NC(=O)OC(C)(C)C)C(C)C,fluorescence,0.002 µM
NS(=O)(=O)c1ccc(NC(=O)c2ccc(SSc3ccc(C(=O)Nc4ccc(S(N)(=O)=O)cc4)cc3)cc2)cc1,-,13 µM
CC(C)(C)OC(=O)N[C@@H](Cc1ccccc1)[C@@H](O)C[N+](C)(Cc1ccccc1)/N=C(\[O-])c1ccc(N)cc1,HPLC,45 µM
N[C@H](Cc1ccc(O)c(-c2cc(C[C@@H](N)C(=O)O)ccc2O)c1)C(=O)O,-,240 µM
Cc1cccc(C)c1CCC(=O)N[C@@H](Cc1ccccc1)[C@@H](O)C[C@H](Cc1ccccc1)NC(=O)[C@H](C(C)C)N1CCCNC1=O,-,<0.0005 µM
CC(=O)O[C@H]1CC[C@]2(C)[C@H]3CC=C4[C@@H]5CC(C)(C)CC[C@]5(C(=O)O)CC[C@@]4(C)[C@]3(C)CC[C@H]2C1(C)C,HPLC,9 µM
COc1cccc(OC)c1OCC(=O)N[C@@H](Cc1ccccc1)[C@@H](O)C[C@H](Cc1ccccc1)NC(=O)[C@H](C(C)C)N1CCCNC1=O,-,>0.0005 µM
COc1c(O)cc(O)c2c1OC(c1ccccc1)CC2=O,substrate cleavage / fluorescence,400 µg/mL
COCCNC(=O)[C@@H](NC(=O)[C@H](Cc1ccccc1OC)C[C@H](O)[C@H](Cc1ccccc1)NC(=O)OC(C)(C)C)C(C)C,fluorescence,0.015 µM
CC(C)[C@H](NC(=O)c1cc2ccccc2c(Cc2c(O)c(C(=O)N[C@H](C(=O)O)C(C)C)cc3ccccc23)c1O)C(=O)O,-,40 µM
COCCNC(=O)[C@@H](NC(=O)[C@H](Cc1cc(OC)c(OC)c(OC)c1)C[C@H](O)[C@H](Cc1ccccc1)NC(=O)OC(C)(C)C)C(C)C,fluorescence,0.011 µM
CCC(C)(C)NC(=O)[C@@H]1CCCN1C(=O)[C@@H](O)[C@H](Cc1ccccc1)NC(=O)[C@H](CC(N)=O)NC(=O)OCc1ccccc1,-,<5 µM
CC(=O)Nc1ccc(SSc2ccc(NC(C)=O)cc2C(N)=O)c(C(N)=O)c1,-,>100 µM
CS(=O)(=O)C[C@H](NC(=O)COc1cccc2ccccc12)C(=O)N[C@@H](Cc1ccccc1)[C@H](O)C(=O)N1CSC[C@H]1C(=O)NC(CO)c1ccccc1,-,>0.05 µM
C=C(C)C1CC[C@]2(C(=O)O)CC[C@]3(C)[C@H](CC[C@@H]4[C@@]5(C)CC[C@H](OC(=O)CCC(=O)O)C(C)(C)[C@@H]5CC[C@]43C)[C@@H]12,HPLC,6 µM

ICn: concentration for n% inhibition. An empty or dashed field is not shown.